The supplement of paper PMC9931576
Human monoclonal antibodies against the spike receptor-binding domain (heavy:light variable regions). IC50 against pseudoviruses bearing the spike of naturally observed variants; lower = stronger; >10 µg/ml means not reached at the top dose. No active / inactive call. The stated detection limit is 0.0005 µg/ml; values near or below 0.001 µg/ml lie at the floor of the assay.

B1: BD-818 (protein)
chain 1: QVQLVQSGAELRKPGSSVKLSCKASGGTFGSHTINWVRQAPGQGLEWMGRIMPILGVANYAQKFEGRVTITADKSTSTAFMELSSLRSDDTGVYYCARFDLHAWYFDLWGRGTLITVSS
chain 2: QSVLTQPPSVSGAPGQRVTISCTGSNSNIGAGYDVHWYQQLPGTAPKLLIYGNSNRPSGVPDRFSGSKSDTSASLAITGLQAEDEADYYCQSYDSDLSDIVFGGGTKLTVL
B2: BD-613 (protein)
chain 1: EVQLVESGGGLVQPGGSLRLSCAASGLTVSSNYMSWVRQAPGKGLNWVSVIYSGGSTYYADSVKGRFTISRDNSKNTLYLEMNSLKPEDTAVYYCARLPYGMDVWGQGTTVTVSS
chain 2: DIQMTQSPSSLSASVGDRVTITCQASQDIRNYLNWYQQKPGKAPKLLIHDASNLETGVPSRFIGSGSGTDFTFTISSLQPEDIATYYCQQYDNLPITFGQGTRLEIK
B3: BD-817 (protein)
chain 1: QVQLVQSGTEVKRPGSSVKVSCKISGGTFSNYAITWVRQAPGQGLEWMGRIIPIFGMADYAQKFQGRVTITADKSTSTAYMELSRLTSEDTAIYYCNFDINTYRELQNWGQGTLVTVSS
chain 2: DIQMTQSPSSLSASIGDRVTITCQASQDIKKSLHWFQQKPGKAPRLLIYDASNLETGVPSRFSGSGSGTDFTFTISSLQPEDFATYFCQQYDNLPLTFGGGTKVDFK
B4: BD55-1868 (protein)
chain 1: EVQLVESGGGLVQPGGSLRLSCTASGFSFSNYHMNWVRQTPGKGLEWVSYISSSSGPIYLADSVKGRFTISRDNARNSLYLQMNSLRAEDTAVYYCATLKWLRGSFDYWGQGTLVTVSS
chain 2: NFMLTQPHSVSESPGKTVTISCTGSSGSIASNYVQWYQQRPGSAPTTVIYEDYQRPSGVPDRFSGSIDSSSNSASLTISGLKTEDEADYYCQSYDSSNVNWVFGGGTKLTVL
B5: BD-824 (protein)
chain 1: QVQLVQSGAEVKKPGASVKVSCRASGYTFTTYSMHWVRQAPGQRLEWMGWINAGNGNTKYSQKFQGRVTITTDTSASTAYMELSRLRSEDTAVFYCARGGNNWFDYFDYWGQGTLVTVSS
chain 2: DIQMTQSPSTLSASVGDRVTITCRASQSINSWLAWYQQIRGKAPKLLIYDASSLESGVPSRFSGSGSGTEFTLTISSLQPDDFATYYCQQYKGYPWTFGQGTKVEIK
B6: BD-822 (protein)
chain 1: QVTLRESGPALVKPTQTLTLTCSFSGFSLTTRGMCVSWIRQSPGKALEWLARIDWDDDKHYSTSLNTRLTISKDASENQVVLQLTNMDPVDTATYYCARETVAGPIIDYWGQGTLVTVSS
chain 2: DIQMTQSPSSLSASVGDRVTITCRASHNINKYLNWYQQKPGKAPKLLIYITSTLQSGVPSRFSGSGSGTDFTLTISSLQPEDFATYYCQQSYSTPRTFGQGTKVEIK
B7: BD55-1811 (protein)
chain 1: QKQLVQSGPEVKKPGTSVKVSCKTSGFTFGTSAVQWVRQARGQRLEWIGWIVVGSGNTDYAQNFQDRVTITKDMSTSTAYLEVNSLRSEDTAVYYCAAEGGYCRGGSCYTFSYWGQGTLVTVSS
chain 2: DIVLTQTPLSLAITPGQPASISCKSSQSLQHSDGKTYLYWYLQKPGQPPQLLISEVSNRFSGVPDRFSGSGSGTDFTLKISRVEADDVGVYFCMQTFRLPRTFGQGTKVEIK

Tests used:
Experiment in all cases: pseudovirus neutralization IC50; higher = weaker neutralization
[1] = target: SARS-CoV-2 Omicron BA.1 spike pseudovirus
Method: (§1)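 Single-round VSV luciferase pseudovirus mixed with antibody dilutions for 1 h and put on Huh-7 cells for about a day; IC50 from the dose curve.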

[2] = target: SARS-CoV-2 Omicron BA.2 spike pseudovirus
Method: as §1

[3] = target: SARS-CoV-2 Omicron BA.2.75 spike pseudovirus
Method: as §1

[4] = target: SARS-CoV-2 Omicron BA.5 spike pseudovirus
Method: as §1

[5] = target: SARS-CoV-2 Omicron BQ.1.1 spike pseudovirus
Method: as §1

[6] = target: SARS-CoV-2 Omicron XBB spike pseudovirus
Method: as §1

[7] = target: SARS-CoV-2 early D614G spike pseudovirus
Method: as §1

Binder	pseudovirus neutralization IC50 [1] [µg/mL]	pseudovirus neutralization IC50 [2] [µg/mL]	pseudovirus neutralization IC50 [3] [µg/mL]	pseudovirus neutralization IC50 [4] [µg/mL]	pseudovirus neutralization IC50 [5] [µg/mL]	pseudovirus neutralization IC50 [6] [µg/mL]	pseudovirus neutralization IC50 [7] [µg/mL]
B1	0.0201	0.025	0.0253	1.07	> 10	> 10	0.022
B2	0.0311	0.0611	> 10	0.819	> 10	> 10	0.0348
B3	> 10	> 10	> 10	> 10	> 10	> 10	1.55
B4	> 10	> 10	> 10	> 10	> 10	> 10	0.34
B5	> 10	0.0343	> 10	0.0438	> 10	> 10	0.029
B6	> 10	> 10	> 10	> 10	> 10	> 10	0.003
B7	> 10	> 10	> 10	> 10	> 10	> 10	> 10
